Measured values from several laboratories, pooled; numbers as filed in NIAID ChemDB.

Shared fields: whole-cell or culture tests; organism: Mycobacterium tuberculosis

ECn: concentration that inhibits the pathogen or its effect by n%.

SMILES,setting,strain,read-out,method,mutations,tested at,result
COc1cc2c3cc1Oc1c(OC)c(OC)cc4c1C(Cc1ccc(O)c(c1)Oc1ccc(cc1)CC3N(C)CC2)CN(C)C4,-,H37Rv,inhibition,BACTEC,-,12.5 µg/mL,3%
Nc1sc2c(c1C(=O)Nc1ccccc1)CCCC2,-,H37Rv,MIC,resazurin,-,-,>100 µg/mL
O=C(O)COc1ccc(-c2ccccc2)c(CN2CCN(c3ccccn3)CC2)c1,-,H37Rv (ATCC 27294),MIC,broth dilution,-,-,32 µg/mL
CCC1CN(c2c(F)cc3c(=O)c(C(=O)O)cn(C4CC4)c3c2OC)CCN1,-,47 (RFP-resistant),MIC,-,-,-,1 µg/mL
CO[C@H]1/C=C/O[C@@]2(C)Oc3c(C)c(O)c4c(O)c(c(/C=N/N5CCN(C6CCCC6)CC5)c(O)c4c3C2=O)NC(=O)/C(C)=C\C=C\[C@H](C)[C@H](O)[C@@H](C)[C@@H](O)[C@@H](C)[C@H](OC(C)=O)[C@@H]1C,-,H37Rv (isoniazid-resistant),MIC,-,-,-,5 µg/mL
CC(C)=CCC1C(=O)C(CC=C(C)C)(CC=C(C)C)C(O)C(C(=O)C(C)C)C1O,-,Isolate J,MIC,-,-,-,20.3 µg/mL
Cc1cc2c(cc1C)[n+]([O-])c(C#N)c(N)[n+]2[O-],-,H37Rv,inhibition,-,-,6.25 µg/mL,97%
Cc1ccc(N2C(c3ccccc3)=CC(=C3C=CC(=O)C=C3)C=C2c2ccccc2)cc1,-,H37Rv,MIC,BACTEC,-,-,12.5 µg/mL
Cc1c(N2C[C@@H](N)C3(CC3)C2)c(F)cc2c(=O)c(C(=O)O)cn([C@@H]3C[C@@H]3F)c12,-,51 (RFP-resistant),MIC,-,-,-,0.2 µg/mL
O=c1oc2ccccc2c(=O)n1-c1ccc(F)cc1,-,CNCTC MY331/88,MIC,-,-,-,125 µM
CS(=O)(=O)OCC1OC(OC2(COS(C)(=O)=O)OC(COS(C)(=O)=O)C(O)C2O)C(OS(C)(=O)=O)C(O)C1O,-,H37Rv,MIC bound,BACTEC,-,-,>12.5 µg/mL
CC[C@@H](CO)NCCN[C@@H](CC)CO,-,Isolate O,MIC,-,-,-,>2.5 µg/mL
Cc1c(N2CC3CCCNC3C2)c(F)cc2c(=O)c(C(=O)O)cn([C@@H]3C[C@@H]3F)c12,-,45 (RFP-resistant),MIC,-,-,-,0.2 µg/mL
COc1cc2c(cc1Cl)[n+](=O)c(C#N)c(Cl)n2[O-],-,H37Rv,EC50,-,-,-,<6.25 µg/mL
CCOC(=O)Nc1cc(Cl)c(N)c(N)n1,-,H37Rv,EC50,-,-,-,>12.5 µg/mL
C[C@H]1COc2c(N3CCN(C)CC3)c(F)cc3c(=O)c(C(=O)O)cn1c23,-,CSU11,MIC,-,-,-,0.25 µg/mL
CC(C)(C)C1=CC(C)(n2[nH]c(=O)n(-c3ccccc3)c2=O)C=C(C(C)(C)C)C1=O,-,H37Rv,inhibition,resazurin,-,6.25 µg/mL,-14%
CCNC(=O)c1c(NC(=O)c2c(F)c(F)c(F)c(F)c2F)sc2c1CCN(CC)C2,-,H37Rv,MIC,turbidity,katG Y155 truncation mutant,-,10 µM
CCOC(=O)/C=C/C(=O)NNS(=O)(=O)CCC(N)C(=O)O,-,H37Rv,inhibition,BACTEC,-,12.5 µg/mL,-6%
COc1cccc(-c2ccc(OCC(=O)O)cc2CN2CCN(c3ccccn3)CC2)c1,-,H37Rv (ATCC 27294),MIC,broth dilution,-,-,32 µg/mL
CO[C@H]1/C=C/O[C@@]2(C)Oc3c(C)c(O)c4c(O)c(c(/C=N/N5CCOCC5)c(O)c4c3C2=O)NC(=O)/C(C)=C\C=C\[C@H](C)[C@H](O)[C@@H](C)[C@@H](O)[C@@H](C)[C@H](OC(C)=O)[C@@H]1C,-,H37Rv,EC50,-,-,-,0.2 µg/mL
COc1ccc2c(=O)n(-c3ccc(C(F)(F)F)cc3)c(=O)oc2c1,-,CNCTC MY331/88,MIC,-,-,-,32 µM
CC(NC(=O)c1c(F)cccc1F)c1nnc(SCc2ccc(F)cc2)n1Cc1cccnc1,7 d,H37Rv (ATCC 27294),MIC,broth dilution,-,-,>64 µg/mL
NNC(=O)c1ccncc1,-,Isolate K,MIC,-,-,-,>0.2 µg/mL
COc1ccc2[nH]c3c(C)c4ccncc4c(C)c3c2c1,-,EMB-R,MIC,-,-,-,0.4 µg/mL
CCN1CCc2c(sc(NC(=O)c3c(F)c(F)c(F)c(F)c3F)c2C(=O)NC)C1,-,H37Rv,MIC,turbidity,rpoB S522L mutant,-,4 µM
O=[N+]([O-])c1cn2c(n1)OC[C@@H](OCc1ccc(OC(F)(F)F)cc1)C2,-,UT29,MIC,-,-,-,0.024 µg/mL
Cc1cc2c(cc1C)NC1=C(N2)OC(c2ccc(Cl)cc2)C1=O,-,H37Rv,MIC bound,BACTEC,-,-,>12.5 µg/mL
O=C(NCc1ccc(N2CCN(Cc3ccccc3)CC2)nc1)c1ccc([N+](=O)[O-])o1,-,UT30,MIC,-,-,-,0.012 µg/mL
COc1ccc2cc(CN(C(=O)Nc3ccccc3Cl)C3CCCCC3)c(=O)[nH]c2c1,-,H37Rv (ATCC 27294),MIC,broth dilution,-,-,>64 µg/mL
CCOC(=O)Nc1cc(NCC(=O)c2ccc([N+](=O)[O-])cc2)c([N+](=O)[O-])c(N)n1,-,H37Rv,EC50,-,-,-,>12.5 µg/mL
Nc1ccc(C(=O)NC(CCC(=O)O)C(=O)O)c(Cl)c1,-,H37Rv,MIC bound,BACTEC,-,-,>12.5 µg/mL
COC(=O)COc1ccc(-c2cccc(Cl)c2)c(CN2CCN(c3ccccn3)CC2)c1,-,H37Rv (ATCC 27294),MIC,broth dilution,-,-,8 µg/mL
CN1C(=O)N(C)C2CC(=O)c3ccc(C(F)(F)F)cc3N2C1=O,-,H37Rv,inhibition,BACTEC,-,12.5 µg/mL,-8%
CC1CN(c2c(F)cc3c(=O)c(C(=O)O)cn(C4CC4)c3c2F)CCN1,-,CSU25,MIC,-,-,-,0.25 µg/mL
CCOC(=O)Nc1cc2c(c(N)n1)N=C(c1ccc(O)cc1)[C@H](C)N2,-,H37Rv,EC50,-,-,-,>12.5 µg/mL
CO[C@H]1/C=C/O[C@@]2(C)Oc3c(C)c(O)c4c(O)c(c(C=Nc5ccc(C)cc5)c(O)c4c3C2=O)NC(=O)/C(C)=C\C=C\[C@H](C)[C@H](O)[C@@H](C)[C@@H](O)[C@@H](C)[C@H](OC(C)=O)[C@@H]1C,-,H37Rv,EC50,-,-,-,>5 µg/mL
CCOC(=O)c1c(NC(=O)c2c(F)c(F)c(F)c(F)c2F)sc2c1CCOC2,-,H37Rv,EC50,turbidity,katG Y155 truncation mutant,-,0.18 µM
CCCCCCc1ccc(Oc2ccccc2)c(O)c1,-,HN335,MIC99,-,-,-,3.7 µg/mL
CCCCCCCCN1C(=O)c2cc(Cl)nnc2Oc2ccc3ccccc3c21,-,H37Rv,EC50,BACTEC,-,-,>12.5 µg/mL
Nc1sc(-c2ccccc2)cc1C(=O)Nc1ccccc1,-,H37Rv,EC50,resazurin,-,-,108 µg/mL
C/C=C1\C(=O)O[C@]23C=C[C@@H]4C(C(=O)OC)=CO[C@H](O[C@@H]12)[C@@H]43,-,MDR3 clinical isolate,MIC,MTT,-,-,2 µg/mL
Clc1nc2nc3n(c2nc1Cl)CCC3(Br)Br,-,H37Rv,inhibition,resazurin,-,6.25 µg/mL,20%
N#Cc1c(NC(=O)c2c(F)c(F)c(F)c(F)c2F)sc2c1CCOC2,-,ATCC35838,MIC,turbidity,-,-,3.4 µM
CCOC(=O)Nc1cc(NCCc2ccccc2)c([N+](=O)[O-])c(N)n1,-,H37Rv,EC50,-,-,-,<12.5 µg/mL
CN[C@@H]1[C@H](O[C@H]2[C@H](O[C@H]3[C@H](O)[C@@H](O)[C@H](N=C(N)N)[C@@H](O)[C@@H]3N=C(N)N)O[C@@H](C)[C@]2(O)C=O)O[C@@H](CO)[C@H](O)[C@H]1O,-,TN2229 (N2),MIC,-,-,-,>2 µg/mL
COc1ccc2oc(=O)n(-c3cccc(F)c3)c(=O)c2c1,-,CNCTC MY331/88,MIC,-,-,-,125 µM
COc1ccc2[nH]c3c(c2c1)C(=O)c1ccncc1C3=O,-,H37Rv,inhibition,resazurin,-,6.25 µg/mL,100%
CCCCCCN1C(=O)c2ccnnc2Oc2ccccc21,-,H37Rv,inhibition,BACTEC,-,12.5 µg/mL,5%
NC(=O)c1cnccn1,-,H5009,MIC,-,-,-,30 µg/mL
Cc1cc2c(cc1C)[n+](=O)c(N1CCN(c3ccc([N+](=O)[O-])cc3)CC1)c(C#N)n2[O-],-,H37Rv,inhibition,-,-,6.25 µg/mL,99%
CCCCCCCCc1ccc(Oc2ccccc2)c(O)c1,-,H37Rv pMH29:inhA,MIC99,-,-,-,22.9 µg/mL
CCOC(=O)Nc1cc(NC(C)CCCN(CC)CC)c([N+](=O)[O-])c(N)n1,-,H37Rv,EC50,-,-,-,>12.5 µg/mL
COc1ccc2c(c1)n([O-])c(C#N)c(N1CCN(c3ccc([N+](=O)[O-])cc3)CC1)[n+]2=O,-,H37Rv,MIC,-,-,-,0.78 µg/mL
CO[C@H]1/C=C/O[C@@]2(C)Oc3c(C)c(O)c4c(O)c(c(/C=N/N5C(C)CN(Cc6ccccc6)CC5C)c(O)c4c3C2=O)NC(=O)/C(C)=C\C=C\[C@H](C)[C@H](O)[C@@H](C)[C@@H](O)[C@@H](C)[C@H](OC(C)=O)[C@@H]1C,-,H37Rv,EC50,-,-,-,0.2 µg/mL
CCN1CCc2c(sc(NC(=O)c3c(F)c(F)c(F)c(F)c3F)c2C#N)C1,-,H37Rv,EC90,turbidity,rpoB S522L mutant,-,21 µM
CC1(C)Oc2cc3oc(C(=O)O)cc(=O)c3cc2-c2ccccc21,-,H37Rv,MIC bound,BACTEC,-,-,≤12.5 µg/mL
CC(NC(=O)c1c(F)cccc1Cl)c1nnc(SCCOc2ccc(F)cc2)n1Cc1cccnc1,7 d,H37Rv (ATCC 27294),MIC,broth dilution,-,-,>64 µg/mL
CC1=CC(=NC(=O)CBr)C=C/C1=N\S(=O)(=O)c1ccccc1,-,H37Rv,MIC,BACTEC,-,-,6.25 µg/mL
CSc1ccc(-c2ccc(OCC(=O)O)cc2CN2CCN(c3ccccn3)CC2)cc1,-,H37Rv (ATCC 27294),MIC,broth dilution,-,-,64 µg/mL
Cc1ccc2c(=O)n(-c3cccc(Cl)c3)c(=O)oc2c1,-,CNCTC MY331/88,MIC,-,-,-,62 µM
CCCCCCCCN1C(=O)c2ccnnc2Oc2cc(C)ccc21,-,H37Rv,EC50,BACTEC,-,-,>12.5 µg/mL
CC(NC(=O)c1c(F)cccc1Cl)c1nnc(SCc2ccc(F)cc2)n1Cc1cccnc1,14 d,H37Rv (ATCC 27294),MIC,broth dilution,-,-,>64 µg/mL
CO[C@H]1/C=C/O[C@@]2(C)Oc3c(C)c(O)c4c(O)c(c(/C=N/N5CCC(N6CCCCC6)CC5)c(O)c4c3C2=O)NC(=O)/C(C)=C\C=C\[C@H](C)[C@H](O)[C@@H](C)[C@@H](O)[C@@H](C)[C@H](OC(C)=O)[C@@H]1C,-,H37Rv,EC50,-,-,-,0.5 µg/mL
CC1CN(c2c(F)cc3c(=O)c(C(=O)O)cn(C4CC4)c3c2F)CC(C)N1,-,CSU28,MIC,-,-,-,≤0.125 µg/mL
CCOC(=O)C1CCCCC12Nc1cccc3cccc(c13)N2,-,H37Rv,MIC,BACTEC,-,-,≥12.8 µg/mL
CCCCCCCCCN1C(=O)c2cc(Cl)nnc2Oc2ccc(C)cc21,-,H37Rv,inhibition,BACTEC,-,12.5 µg/mL,34%
C[n+]1c(-c2ccc(/C=N/Nc3ccnc(N/N=C/c4ccc(-c5cn6ccsc6[n+]5C)cc4)n3)cc2)cn2ccsc21.Cc1ccc(S(=O)(=O)[O-])cc1.Cc1ccc(S(=O)(=O)[O-])cc1,-,H37Rv,MIC bound,BACTEC,-,-,>12.5 µg/mL
CO[C@H]1/C=C/O[C@@]2(C)Oc3c(C)c(O)c4c(O)c(c(C=Nc5ccc(Cl)cc5)c(O)c4c3C2=O)NC(=O)/C(C)=C\C=C\[C@H](C)[C@H](O)[C@@H](C)[C@@H](O)[C@@H](C)[C@H](OC(C)=O)[C@@H]1C,-,H37Rv,EC50,-,-,-,>5 µg/mL
Cc1cc(O)c2c(c1)C(=O)c1c(c(O)cc(O)c1-c1c(O)cc(O)c3c1C(=O)c1cc(C)cc(O)c1C3=O)C2=O,-,H37Rv,inhibition,BACTEC,-,12.5 µg/mL,26%
CO[C@H]1/C=C/O[C@@]2(C)Oc3c(C)c(O)c4c(O)c(c5c(c4c3C2=O)NC2(CCN(CC(C)C)CC2)N=5)=NC(=O)/C(C)=C\C=C\[C@H](C)[C@H](O)[C@@H](C)[C@@H](O)[C@@H](C)[C@H](OC(C)=O)[C@@H]1C,-,CSU25,MIC,-,-,-,≤0.125 µg/mL
O=[n+]1c2ccccc2n([O-])c2ccccc21,-,PZA-R,MIC,-,-,-,1.6 µg/mL
CCOC(=O)Nc1cc(NC(C)CCCN(CC)CC)c2ncc(C)nc2n1,-,H37Rv,EC50,-,-,-,>12.5 µg/mL
CCC(C)(O)Cc1cnccn1,-,H37Rv,inhibition,BACTEC,-,12.5 µg/mL,23%
O=C(c1ccc([N+](=O)[O-])o1)N1CCc2cc(N3CCN(Cc4ccccc4)CC3)ccc2C1,-,CDC1551,MIC,-,-,-,0.1 µg/mL
CC(N)Cc1c(Cl)cc(N(C)C)cc1Cl,-,H37Rv,MIC bound,BACTEC,-,-,>12.5 µg/mL
CCOC(=O)c1c(NC(=O)c2c(F)c(F)c(F)c(F)c2F)sc2c1CCNC2=O,-,ATCC 35822,EC50,turbidity,-,-,0.27 µM
NN1CC(=O)NC1=O,-,H37Rv,MIC bound,BACTEC,-,-,>12.5 µg/mL
N#Cc1c(N2CCN(c3ccc([N+](=O)[O-])cc3)CC2)[n+](=O)c2ccc(-c3ccc([N+](=O)[O-])cc3)cc2n1[O-],-,H37Rv,inhibition,-,-,6.25 µg/mL,94%

MIC50, MIC90 and the like: level of inhibition, or share of isolates inhibited. Blank or dashed fields: not listed here. MIC bound comes from a single tested concentration. Neighbouring rows are from separate reports. Inhibition is in % at the dose shown (toxicity tests: loss of growth or viability).